Data published in article PMC11433573 (Marine Drugs, 2024).

Chains of the proteins cited; added tags and fusions are not shown. Residues count along the entry.
UniProt Q05941, 23-502 limits assumed: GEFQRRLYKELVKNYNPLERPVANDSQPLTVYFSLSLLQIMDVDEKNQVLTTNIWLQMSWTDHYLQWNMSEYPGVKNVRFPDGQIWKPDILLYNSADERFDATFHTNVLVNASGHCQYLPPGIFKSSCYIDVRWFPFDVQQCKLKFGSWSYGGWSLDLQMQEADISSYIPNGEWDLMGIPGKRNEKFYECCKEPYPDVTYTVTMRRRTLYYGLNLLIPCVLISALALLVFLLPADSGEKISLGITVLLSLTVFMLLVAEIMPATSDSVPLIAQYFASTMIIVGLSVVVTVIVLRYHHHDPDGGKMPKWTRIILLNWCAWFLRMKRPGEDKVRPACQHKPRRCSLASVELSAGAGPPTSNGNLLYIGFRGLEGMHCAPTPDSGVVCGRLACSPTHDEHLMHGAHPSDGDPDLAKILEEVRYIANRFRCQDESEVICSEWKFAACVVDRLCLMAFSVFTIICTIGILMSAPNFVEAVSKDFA

Molecular target: rα7 nAChR (Rattus norvegicus, UniProt Q05941)
Details: for increase in selectivity for rα7 compared with the native RegIIA: rα7 versus rα3β2 and rα3β4; for selectivity towards rα7 versus rα3β2 and rα3β4: ratio of IC50s, rα7 versus the other two subtypes

Structure (SMILES)	increase in selectivity for rα7 compared with the native RegIIA	selectivity towards rα7 versus rα3β2 and rα3β4
CC[C@H](C)[C@@H]1NC(=O)[C@H](Cc2c[nH]cn2)NC(=O)[C@@H]2CCCN2C(=O)[C@H](CC(N)=O)NC(=O)[C@H](CC(N)=O)NC(=O)[C@H](C(C)C)NC(=O)[C@H](CC(N)=O)NC(=O)[C@@H]2CSSC[C@H](NC(=O)CN)C(=O)N[C@@H](CSSC[C@@H](C(N)=O)NC1=O)C(=O)N[C@@H](CO)C(=O)N[C@@H](CO)C(=O)N1CCC[C@H]1C(=O)N[C@@H](C)C(=O)N2 [[H5S]RegIIA]	> 24 fold	–
CC[C@H](C)[C@@H]1NC(=O)[C@H](Cc2c[nH]cn2)NC(=O)[C@@H]2CCCN2C(=O)[C@H](CC(N)=O)NC(=O)[C@H](CC(N)=O)NC(=O)[C@H](C(C)C)NC(=O)[C@H](CC(N)=O)NC(=O)[C@@H]2CSSC[C@H](NC(=O)CN)C(=O)N[C@@H](CSSC[C@@H](C(N)=O)NC1=O)C(=O)N[C@@H](CO)C(=O)N[C@@H](C(C)C)C(=O)N1CCC[C@H]1C(=O)N[C@@H](C)C(=O)N2 [[H5V]RegIIA]	> 24 fold	–
CC[C@H](C)[C@@H]1NC(=O)[C@H](Cc2c[nH]cn2)NC(=O)[C@@H]2CCCN2C(=O)[C@H](CC(N)=O)NC(=O)[C@H](CC(N)=O)NC(=O)[C@H](C(C)C)NC(=O)[C@H](CC(N)=O)NC(=O)[C@@H]2CSSC[C@H](NC(=O)CN)C(=O)N[C@@H](CSSC[C@@H](C(N)=O)NC1=O)C(=O)N[C@@H](CO)C(=O)N[C@@H](C)C(=O)N1CCC[C@H]1C(=O)N[C@@H](C)C(=O)N2 [[H5A]RegIIA]	–	> 21 fold
CC[C@H](C)[C@@H]1NC(=O)[C@H](Cc2c[nH]cn2)NC(=O)[C@@H]2CCCN2C(=O)[C@H](CC(N)=O)NC(=O)[C@H](CC(N)=O)NC(=O)[C@H](C(C)C)NC(=O)[C@H](CC(N)=O)NC(=O)[C@@H]2CSSC[C@H](NC(=O)CN)C(=O)N[C@@H](CSSC[C@@H](C(N)=O)NC1=O)C(=O)N[C@@H](CO)C(=O)N[C@@H](Cc1c[nH]cn1)C(=O)N[C@@H](C)C(=O)N[C@@H](C)C(=O)N2 [[P6A]RegIIA]	–	> 21 fold
